# Source: PubChem BioAssay AID602399 (Sanford-Burnham Center for Chemical Genomics, 2012)
# Only a part is listed here, and it is no random draw. Calls of active or inactive are those of the source. Rule as the data show it: active = inhibition above about 26%; inactive = the rest.
# Tested on: Nicotinate-nucleotide adenylyltransferase NadD (Staphylococcus aureus N315)
# Test: S. aureus NadD enzyme activity blockers – biochemical, colorimetric, uHTS, primary screen (AID 602399)
# Conditions: purified NadD enzyme, colorimetric absorbance read-out; at 20 µM; hits give high values
row,Structure (SMILES),inhibition
1,NC(=O)Nc1ccc([As](=O)(O)O)cc1,inactive: -0.758%
2,CN(C(=O)Cc1ccc(Cl)c(Cl)c1)[C@H]1CC[C@@]2(CCCO2)C[C@@H]1N1CCCC1,inactive: -4.75%
3,O=[N+]([O-])c1ccc2c(c1)nnn2O,inactive: -9.52%
4,CN(C)C(=O)c1cc([N+](=O)[O-])cc2c1-c1c(cc([N+](=O)[O-])cc1[N+](=O)[O-])C2=O,inactive: -0.0767%
5,CN(C(=O)Cc1ccccc1)[C@@H]1CC[C@]2(CCCO2)C[C@H]1N1CCCC1,inactive: -4.61%
6,CCOP1(=S)c2c(C)nn(CCC#N)c2N=C(c2ccc(F)cc2)N1C (centres undefined),inactive: 0.244%
7,N#CCCN(C(=O)COC(=O)C(O)(c1ccccc1)c1ccccc1)c1ccc(F)cc1,inactive: 1.3%
8,CS(=O)(=O)c1cc([N+](=O)[O-])c2no[n+]([O-])c2c1,inactive: 7.82%
9,O=P(Nc1nccs1)(Oc1ccccc1)Oc1ccccc1,inactive: -3.92%
10,O=P(Nc1nccs1)(c1ccccc1)c1nc2ccccc2s1 (centres undefined),inactive: 12.6%
11,CCOP1(=S)c2c(C)nn(CCC#N)c2N=C(c2ccccc2F)N1C (centres undefined),inactive: -5.96%
12,Nc1ccccc1[As](=O)(O)c1ccccc1,inactive: -6.37%
13,O=C(O)COc1ccc([As](=O)(O)O)cc1[N+](=O)[O-],inactive: -3.93%
14,CCCOP(=S)(Nc1nc(N)cc(=O)[nH]1)OCCC,inactive: 2.41%
15,Nc1cccc2c([As](=O)(O)O)cccc12,inactive: -0.24%
16,Cc1ccc(NCCc2c([N+](=O)[O-])cc([N+](=O)[O-])cc2[N+](=O)[O-])cc1,inactive: 13.2%
17,CCOP(=O)(Nc1cccc2ccccc12)OCC,inactive: -0.472%
18,COc1cc(C2NCCC3(OCCO3)C2(C)C)cc(OC)c1OC (centres undefined),inactive: -5.23%
19,CS(=O)(=O)c1ccc(Cl)c(NC(=O)COC(=O)C(O)(c2ccccc2)c2ccccc2)c1,inactive: -7.49%
20,O=[As](O)(O)c1cccnc1,inactive: -7.91%
21,COc1cc(C(=O)NCC2(N3CCOCC3)CCCCC2)cc(Cl)c1OC(C)C,inactive: 3.56%
22,O=C(OC1CN2CCC1CC2)c1ccc(Cl)cc1 (centres undefined),inactive: -1.58%
23,Cc1cccc(OCC(=O)OC2CN3CCC2CC3)c1 (centres undefined),inactive: -3.37%
24,O=[As](O)(c1cccc(O)c1)c1cccc(O)c1,inactive: -9.42%
25,COc1ccccc1CNC(=O)COC(=O)C(O)(c1ccccc1)c1ccccc1,inactive: -4.97%

row,Structure (SMILES),inhibition
1,CC1(CBr)Cn2c(nc3ccccc3c2=O)S1 (centres undefined),inactive: -1.09%
2,CC(C)/C=N\N=C(\N)N[N+](=O)[O-],inactive: -5.46%
3,CN(C(=O)Cc1ccc(Cl)c(Cl)c1)[C@@H]1CCCC[C@H]1N1CCCC1,inactive: -0.704%
4,CCOP(=O)(Nc1ccc(C)cn1)OCC,inactive: -5.12%
5,CN(CCCl)Cc1cc(Cl)c(NC2=NCCN2)c(Cl)c1,inactive: -2.11%
6,CCOP(=O)(NC(=NC(C)c1ccccc1)NC(C)c1ccccc1)OCC (centres undefined),inactive: -5.21%
7,O=P1(Nc2ccccn2)COc2ccccc2OC1,inactive: -3.38%
8,CCC1=CC2Cc3nc4ccc(Cl)cc4c(N)c3C(C1)C2 (centres undefined),inactive: -6.36%
9,CC(C)(C)C(=O)NC(Sc1ncccn1)C(Cl)(Cl)Cl (centres undefined),inactive: -1.48%
10,O=P1(N(CCCl)CCCl)NCCC(C(F)(F)F)O1 (centres undefined),inactive: -1.7%
11,Clc1n[nH]nc1-c1nn[nH][15n]1,inactive: -3.03%
12,O=P1(Nc2ncccn2)COc2ccccc2OC1,inactive: -1.45%
13,Cc1ccc(S(=O)(=O)N(CCCN)CCCc2c(C)nc(N)[nH]c2=O)cc1,inactive: 0.0819%
14,O=[As](O)(c1cccs1)c1cccs1,inactive: -8.57%
15,Cc1ccc(OCC(=O)OC2CN3CCC2CC3)cc1 (centres undefined),inactive: -3.87%
16,O=P1(Nc2ccc(Br)cn2)COc2ccccc2OC1,inactive: -1.07%
17,NS(=O)(=O)c1cccc(NC(=O)COC(=O)C(O)(c2ccccc2)c2ccccc2)c1,inactive: -3.5%
18,Nc1cccc([As](=O)(O)c2ccccc2)c1,inactive: -5.83%
19,CC1CCC(C(C)C)C(OP(=O)(Nc2ccccn2)c2ccccc2)C1 (centres undefined),inactive: -3.5%
20,Cc1ccc(C(=O)OC2CN3CCC2CC3)cc1 (centres undefined),inactive: -7.32%
21,Cc1nn(-c2ccccc2)c2c1P(=O)(N1CCOCC1)N(C)C(c1ccccc1)=N2 (centres undefined),inactive: -0.439%
22,CCCC1OP(=O)(Nc2ccccc2)OCC1CC (centres undefined),inactive: 1.3%
23,O=C(/C=C/c1ccccc1)OC1CN2CCC1CC2 (centres undefined),inactive: 0.0819%
24,CN(C)C1(CNC(=O)c2ccc(S(C)(=O)=O)cc2)CCCCC1,inactive: -1.03%
